# PubChem BioAssay AID720518 (National Center for Advancing Translational Sciences (NCATS), 2013)
# The entries are a selection whose mix differs from that of the whole data set. Inconclusive results are not listed. Active and inactive are the calls of the source. The call rests on the fitted dose curve.
# Assay: qHTS for Inhibitors of Cell Surface uPA Generation: Wild-type Protective Antigen (WT-PrAg) Counterscreen for Cherry-picked Compounds; further: 0% is about no effect
# Conditions: cells, WT protective antigen toxicity counterscreen; at 115 µM (top of the series)
smiles,measurement,value
O=C(O)CNc1ccc([As](=O)(O)O)cc1,activity (protection),inactive: 1.18%
